## Positions that govern dimerization of the HIV-1 5' RNA

Sequence of the HIV-1 NL4-3 5' RNA, positions 1 to 437, as numbered in the source:
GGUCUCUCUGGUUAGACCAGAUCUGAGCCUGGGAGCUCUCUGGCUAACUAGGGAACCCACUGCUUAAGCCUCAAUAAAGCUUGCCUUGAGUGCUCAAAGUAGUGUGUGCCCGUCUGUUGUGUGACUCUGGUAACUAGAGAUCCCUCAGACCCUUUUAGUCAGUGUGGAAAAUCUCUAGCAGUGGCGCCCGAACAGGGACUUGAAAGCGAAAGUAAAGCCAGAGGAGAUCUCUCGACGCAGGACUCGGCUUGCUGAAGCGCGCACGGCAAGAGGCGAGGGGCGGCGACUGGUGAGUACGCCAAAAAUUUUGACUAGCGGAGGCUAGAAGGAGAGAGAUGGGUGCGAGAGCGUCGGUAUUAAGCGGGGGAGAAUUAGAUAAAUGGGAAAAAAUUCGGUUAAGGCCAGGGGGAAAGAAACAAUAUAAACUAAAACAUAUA

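Mutant RNA libraries with 1G, 2G or 3G starts, with or without cap, were folded at 37 °C for 30 min. Monomer and dimer bands were cut from native gels after folding in high salt (300 mM KCl, 5 mM MgCl2) or low salt (40 mM KCl, 0.1 mM MgCl2). Kdimer compares mutation frequencies in monomer and dimer, corrected for sequencing errors.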

Scale: median log2 Kdimer over the changes at a position; positive = changes inhibit dimerization, negative = changes enhance it.
One numbering serves 1G, 2G and 3G.
A position is written with its base where known.

G43 (domain TAR) read 1G uncapped high-salt 0.06; 2G capped high-salt -0.14; 3G uncapped high-salt -0.19; 2G uncapped high-salt -0.14.
U82 (domain PolyA) read 1G uncapped high-salt 0.13; 2G capped high-salt 0.05; 3G uncapped high-salt 0.10; 2G uncapped high-salt -0.04.
U103 (domain PolyA) read 1G uncapped high-salt 0.12; 2G capped high-salt -0.07; 3G uncapped high-salt 0.08; 2G uncapped high-salt 0.26.
C111 (domain U5) read 1G uncapped high-salt -0.12; 2G capped high-salt -0.09; 3G uncapped high-salt -0.10; 2G uncapped high-salt -0.15.
A133 (domain PBS) read 1G uncapped high-salt 0.20; 2G capped high-salt 0.06; 3G uncapped high-salt 0.15; 2G uncapped high-salt 0.11.
U165 (domain PBS) read 1G uncapped high-salt 0.11; 2G capped high-salt -0.01; 3G uncapped high-salt -0.06; 2G uncapped high-salt -0.05.
C179 (domain PBS) read 1G uncapped high-salt -0.03; 2G capped high-salt -0.22; 3G uncapped high-salt -0.09; 2G uncapped high-salt 0.02.
C252 (domain SL1) read 1G uncapped high-salt 4.65; 2G capped high-salt 3.30; 3G uncapped high-salt 4.58; 2G uncapped high-salt 4.55.
G259 (domain SL1) read 1G uncapped high-salt 5.53; 2G capped high-salt 4.71; 3G uncapped high-salt 7.58; 2G uncapped high-salt 7.18.
G280 read 1G uncapped high-salt -0.22; 2G capped high-salt -0.22; 3G uncapped high-salt -0.29; 2G uncapped high-salt -0.33.
G289 (domain SL2) read 1G uncapped high-salt 0.31; 2G capped high-salt 0.44; 3G uncapped high-salt 0.33; 2G uncapped high-salt 0.33.
G294 (domain SL2) read 1G uncapped high-salt -0.20; 2G capped high-salt -0.31; 3G uncapped high-salt -0.34; 2G uncapped high-salt -0.11.
U295 (domain SL2) read 1G uncapped high-salt -0.10; 2G capped high-salt -0.31; 3G uncapped high-salt -0.20; 2G uncapped high-salt -0.05.
U323 (domain SL3) read 1G uncapped high-salt 0.69; 2G capped high-salt 0.50; 3G uncapped high-salt 0.64; 2G uncapped high-salt 0.95.
A327 read 1G uncapped high-salt 0.20; 2G capped high-salt 0.09; 3G uncapped high-salt 0.06; 2G uncapped high-salt 0.12.
G333 (domain AUG) read 1G uncapped high-salt -0.04; 2G capped high-salt 0.14; 3G uncapped high-salt -0.08; 2G uncapped high-salt 0.06.
G369 read 1G uncapped high-salt 0.12; 2G capped high-salt 0.10; 3G uncapped high-salt 0.12; 2G uncapped high-salt 0.17.
position 483 read 1G uncapped high-salt -0.04; 2G capped high-salt 0.03; 3G uncapped high-salt -0.15; 2G uncapped high-salt 0.05.

The first 2 entries again:

| position | domain | 1G uncapped high-salt | 2G capped high-salt | 3G uncapped high-salt | 2G uncapped high-salt |
|---|---|---|---|---|---|
| G43 | TAR | 0.06 | -0.14 | -0.19 | -0.14 |
| U82 | PolyA | 0.13 | 0.05 | 0.10 | -0.04 |

The source gives no letters past position 437.

The measurements come from Ye et al. 2022 (doi:10.1038/s41594-022-00746-2).